According to doi:10.1101/2020.08.10.244244:

Target: HA-tagged mutant (Leu15) AP2σ2 subunit (human) (human) (UniProt P53680)
Assay: co-IP

“AP2β2 subunit, endogenous in HEK293 cells (from UniProt P63010 1-937) (natural protein)” was tested, and the reduction of the subunit in the HA-AP2σ2 immunoprecipitate against WT cells was greater than 50%.

“AP2μ2 subunit, endogenous in HEK293 cells (from UniProt Q96CW1 1-435) (natural protein)” showed a reduction of the subunit in the HA-AP2σ2 immunoprecipitate against WT cells greater than 50%.
